Earlier results as cited in article PMC5498545.

Molecular target: Nucleoprotein N-RNA rings (Rabies virus) (UniProt Q8JXF6)

In the case of “Phosphoprotein P dimer (from UniProt P22363)”, the Kd is listed as 0.16 µM.
